Laboratory results from publication PMC7952403 (Nature Communications, 2021).

Key:
[1] = target: T1, SARS-CoV-2 S1-S2 spike ectodomain with 6xHis tag, produced in High Five cells (SARS-CoV-2 Wuhan-Hu-1 (MN908947 / …, UniProt P0DTC2, […] | “GSAS” substitution at the furin site, residues 682–685); test: ELISA; details: both partners purified
T1 construct: also called S1-S2-His; S1-S2 trimer; not shown: 6xHis, C-terminal, kept

[2] = target: T1, SARS-CoV-2 S1-S2 spike ectodomain with …; test: flow cytometry on cells; details: both partners purified

| Binder | EC50 [1] | IC50 [2] |
| --- | --- | --- |
| STE70-1E12 scFv-Fc (scFv, V domains shown, also called scFv-hFc; source: Expi293F, transient transfection, purified (Protein A)) VH: QMQLVQSGAEVKKPGASVKVSCKASGYTFTGYYMHWVRQAPGQGLEWMGRINPNSGGTNYAQKFQGRVTMTRDTSTSTAYMELSRLRSDDTAVYYCVRDGYNFNNWFDPWGQGTLVTVSS VL: NFMLTQPHSVSGSPGETITISCTGSGGSIASNYVQWYRQRPGSAPTIVIYEDTQRPSGVPDRFSGSIDSSSNSASLTISGLKTEDEADYYCQSSESTNHVMFGGGSKLTVL | 1.1 nM | 180 nM |
| STE70-1E12 IgG (antibody, V domains shown, source: Expi293F, transfected, purified (Protein A); copies: 2 + 2) VH: QMQLVQSGAEVKKPGASVKVSCKASGYTFTGYYMHWVRQAPGQGLEWMGRINPNSGGTNYAQKFQGRVTMTRDTSTSTAYMELSRLRSDDTAVYYCVRDGYNFNNWFDPWGQGTLVTVSS VL: NFMLTQPHSVSGSPGETITISCTGSGGSIASNYVQWYRQRPGSAPTIVIYEDTQRPSGVPDRFSGSIDSSSNSASLTISGLKTEDEADYYCQSSESTNHVMFGGGSKLTVL | 0.8 nM |  |
| STE73-2G8 scFv-Fc (scFv, V domains shown, also called scFv-hFc; source: Expi293F, transient transfection, purified (Protein A)) VH: QVQLVQSGGGLVKPGGSLRLSCAASGITVSSNYMSWVRQAPGKGLEWVSILYSGGTTFYTDSVKGRFTISRDNSKNTLHLQMNSLRAEDTAVYYCARWSGTYYDYWGQGTLVTVSS VL: SSELTQDPAVSVALGQTVRITCQGDSLRSYYASWYQQKPGQAPVLVIYGKNNRPSGIPDRFSGSSSGNTASLTITGAQAEDEADYYCNSRDSTNDPVLFGAGTKLTVL | 0.4 nM | 23 nM |
| STE73-2G8 IgG (antibody, V domains shown, source: Expi293F, transfected, purified (Protein A); copies: 2 + 2) VH: QVQLVQSGGGLVKPGGSLRLSCAASGITVSSNYMSWVRQAPGKGLEWVSILYSGGTTFYTDSVKGRFTISRDNSKNTLHLQMNSLRAEDTAVYYCARWSGTYYDYWGQGTLVTVSS VL: SSELTQDPAVSVALGQTVRITCQGDSLRSYYASWYQQKPGQAPVLVIYGKNNRPSGIPDRFSGSSSGNTASLTITGAQAEDEADYYCNSRDSTNDPVLFGAGTKLTVL | 2.8 nM |  |
| STE72-2G4 scFv-Fc (scFv, V domains shown, also called scFv-hFc; source: Expi293F, transient transfection, purified (Protein A)) VH: QVQLVQSGAEVKKPGASVKVSCKASGYTFTSYGISWVRQAPGQGLEWMGWISAYNGNTNYAQKLQGRVTMTTDTSTSTAYMELRSLRSDDTAVYYCARFFYDSSGYSTDYWGQGTLVTVSS VL: ETTLTQSPAFMSVTPGDRAILSCRASQSVDSHLAWYHQKPGQPPRLLIYGASTRATGIPARFSGSRSGTEFTLTISGLQSEDLGVYYCQQYASWPPGYNFGQGTKLEIK | 0.3 nM | 37 nM |
| STE73-6C1 scFv-Fc (scFv, V domains shown, also called scFv-hFc; source: Expi293F, transient transfection, purified (Protein A)) VH: QVQLVQSGGGVVQPGRSLRLSCAASGFTFSSYAMHWVRQAPGKGLEWVAVISYDGSNKYYADSVKGRFTISRDNSKNTLYLQMNSLRAEDTAVYYCARSYVGGMDVWGQGTTVTVSS VL: QLVLTQSPSVSGAPGQSVTISCTGTDSNIGAGYNVHWYQQLPGAAPKLIISYTDNRPSGVPDRFSGSKSGTSASLAITGLQAEDEADYYCQSSDRTLVGSLFGTGTKVTVL | 1.8 nM | 97 nM |
| STE73-9G3 scFv-Fc (scFv, V domains shown, also called scFv-hFc; source: Expi293F, transient transfection, purified (Protein A)) VH: QVQLQESGGGLVQPGGSLRLSCAASGFTFSSYAMSWVRQAPGKGLEWVSAISGSGGSTYYADSVKGRFTISRDNSKNTLYLQMNSLRAEDTAVYYCARDLVLGSGSSNDWGRGTLVTVSS VL: QPVLTQPPSVSGAPGQSVTISCTGTDSNIGAGYNVHWYQQLPGAAPKLIISYTDNRPSGVPDRFSGSKSGTSASLAITGLQAEDEADYYCQSSDRTLVGSLFGTGTKVTVL | 0.9 nM | 40 nM |
| STE73-6C1 IgG (antibody, V domains shown, source: Expi293F, transfected, purified (Protein A); copies: 2 + 2) VH: QVQLVQSGGGVVQPGRSLRLSCAASGFTFSSYAMHWVRQAPGKGLEWVAVISYDGSNKYYADSVKGRFTISRDNSKNTLYLQMNSLRAEDTAVYYCARSYVGGMDVWGQGTTVTVSS VL: QLVLTQSPSVSGAPGQSVTISCTGTDSNIGAGYNVHWYQQLPGAAPKLIISYTDNRPSGVPDRFSGSKSGTSASLAITGLQAEDEADYYCQSSDRTLVGSLFGTGTKVTVL | 34 nM |  |
| STE73-9G3 IgG (antibody, V domains shown, source: Expi293F, transfected, purified (Protein A); copies: 2 + 2) VH: QVQLQESGGGLVQPGGSLRLSCAASGFTFSSYAMSWVRQAPGKGLEWVSAISGSGGSTYYADSVKGRFTISRDNSKNTLYLQMNSLRAEDTAVYYCARDLVLGSGSSNDWGRGTLVTVSS VL: QPVLTQPPSVSGAPGQSVTISCTGTDSNIGAGYNVHWYQQLPGAAPKLIISYTDNRPSGVPDRFSGSKSGTSASLAITGLQAEDEADYYCQSSDRTLVGSLFGTGTKVTVL | 2.3 nM |  |
| STE73-2C2 scFv-Fc (scFv, V domains shown, also called scFv-hFc; source: Expi293F, transient transfection, purified (Protein A)) VH: QVQLVESGGGLVQPGGSLRLSCAASGITVSSNYMSWVRQAPGKGLEWVSVIYSGGSTFYADSVKGRFTISRDNSKNTLYLQMNSLRAEDTGVYYCARGHDNLDYWGQGTLVTVSS VL: LPVLTQPHSVSESPGKTVIISCTGSSDSIASNYVQWYQQRPGSAPTTVIYEDNKRPSGVPDRFSGSTDSSSNSASLTISGLKTEDEAEYYCQSYDSNNHWVFGGGTKLTVL | 7.8 nM | 59 nM |
| STE72-4E12 scFv-Fc (scFv, V domains shown, also called scFv-hFc; source: Expi293F, transient transfection, purified (Protein A)) VH: QVQLVQSGAEVKKPGASVKVSCKASGYTFTSYYMHWVRQAPGQGLEWMGIINPSGGSTSYAQKFQGRVTMTRDTSTSTVYMELSSLRSEDTAVYYCARDLSGGLDYWGQGTLVTVSS VL: ETTLTQSPATLSVSPGERVTLACRAGQTISSKLAWYRQKPGQAPSLLIYDASTRATGVPARFSGSGSGTEFTLTISSLQSEDFAVYYCQQYSDWPPTFGQGTKVEIK | 3.7 nM |  |
| STE72-4E12 IgG (antibody, V domains shown, source: Expi293F, transfected, purified (Protein A); copies: 2 + 2) VH: QVQLVQSGAEVKKPGASVKVSCKASGYTFTSYYMHWVRQAPGQGLEWMGIINPSGGSTSYAQKFQGRVTMTRDTSTSTVYMELSSLRSEDTAVYYCARDLSGGLDYWGQGTLVTVSS VL: ETTLTQSPATLSVSPGERVTLACRAGQTISSKLAWYRQKPGQAPSLLIYDASTRATGVPARFSGSGSGTEFTLTISSLQSEDFAVYYCQQYSDWPPTFGQGTKVEIK | 1.7 nM |  |
| STE73-2B2 scFv-Fc (scFv, V domains shown, also called scFv-hFc; source: Expi293F, transient transfection, purified (Protein A)) VH: QVQLVQSGAEVKKPGASVKVSCKASGYTFTGYYMHWVRQAPGQGLEWMGWINPNSGGTNYAQKFQGRVTITRDTSASTAYMELSSLRSEDTAVYYCARVSGWYFGAFDIWGQGTMVTVSS VL: LPVLTQPHSLSESPGKTVNISCTGSSGSIASNYVQWYQQRPGSAPTTVIYEDSHRPSGVPDRFSGSIDSSSNSASLSISGLKTEDEADYYCQSYDSSNNQWVFGGGTKLTVL | 0.3 nM | 63 nM |
| STE72-1B6 scFv-Fc (scFv, V domains shown, also called scFv-hFc; source: Expi293F, transient transfection, purified (Protein A)) VH: QVKLVQSGGGLVQPGGSLRLSCAASGFTFSSYAMSWVRQAPGKGLEWVSGISGSGGSTYYADSVKGRFTISRDNSKNTLYLQVNSLRAEDTAVYYCAKAPYGDFRGLWYFDYWGQGTLVTVSS VL: DIVMTQSPFSVSASVGDRVTISCRASQDIRSWLAWYQQKPGKAPQLLIYDASSLQSGVPSRFSGSGSGTDFTLTISSLQPEDFATYYCQQADSVPLTFGGGTKVEIQ | 1.4 nM | 240 nM |
| STE72-1B6 IgG (antibody, V domains shown, source: Expi293F, transfected, purified (Protein A); copies: 2 + 2) VH: QVKLVQSGGGLVQPGGSLRLSCAASGFTFSSYAMSWVRQAPGKGLEWVSGISGSGGSTYYADSVKGRFTISRDNSKNTLYLQVNSLRAEDTAVYYCAKAPYGDFRGLWYFDYWGQGTLVTVSS VL: DIVMTQSPFSVSASVGDRVTISCRASQDIRSWLAWYQQKPGKAPQLLIYDASSLQSGVPSRFSGSGSGTDFTLTISSLQPEDFATYYCQQADSVPLTFGGGTKVEIQ | 2.4 nM |  |
